Reference: publication PMC12494546, “Structural basis of heme scavenging by the ChtA and HtaA hemophores in Corynebacterium diphtheriae” (The Journal of Biological Chemistry, 2025)

Tests used:
Set-up in all cases: species or system Corynebacterium diphtheriae
[1] = test system: ChtA^CR (WT, residues K112-G291 of ChtA); experiment: ITC of hemin binding to ChtA^CR (WT)
ChtA^CR Y178H = experiment: ITC of hemin binding to ChtA^CR Y178H
From the text: (§1) Protein samples were equilibrated in titration buffer supplemented with 5% (v/v) DMSO. […] Binding isotherms were fit to a one-site binding model using the program ORIGIN ([91]).

ChtA^CR K177G = experiment: ITC of hemin binding to ChtA^CR K177G
From the text: as §1

ChtA^CR K177G + Y178H = experiment: ITC of hemin binding to ChtA^CR K177G + Y178H
From the text: as §1

ChtA^CR Y178A = experiment: ITC of hemin binding to ChtA^CR Y178A
From the text: as §1

Question: Which results are given for hemin?
Answer: TΔS° [1]: 0.5 kcal/mol; hemin binding stoichiometry parameter n ([1]; 5 replicates, copies of ChtA^CR per hemin): 1.79 ± 0.166; −TΔS° ([1]; 25 °C (298 K)): 0.5 kcal/mol; ΔG° (ChtA^CR Y178H; 25 °C): -9.7 kcal/mol; ΔH° (ChtA^CR Y178H; 25 °C): -12.1 ± 0.4 kcal/mol; −TΔS° (ChtA^CR Y178H; 25 °C (298 K)): 2.4 kcal/mol; ΔH° (ChtA^CR K177G; 25 °C): -14.5 ± 0.3 kcal/mol; −TΔS° (ChtA^CR K177G; 25 °C (298 K)): 4 kcal/mol; ΔG° (ChtA^CR K177G + Y178H; 25 °C): -10.3 kcal/mol; ΔH° (ChtA^CR K177G + Y178H; 25 °C): -9.9 ± 0.2 kcal/mol; −TΔS° (ChtA^CR K177G + Y178H; 25 °C (298 K)): -0.5 kcal/mol; ΔG° (ChtA^CR Y178A; 25 °C): -10.1 kcal/mol; ΔH° (ChtA^CR Y178A; 25 °C): -6.4 ± 0.3 kcal/mol; −TΔS° (ChtA^CR Y178A; 25 °C (298 K)): -3.7 kcal/mol
